Anti-infective test results gathered from many reports (values: NIAID ChemDB through PubChem).

Common to all: cytotoxicity tests; cells: MT-4; read-out: CC50

An empty or dashed field is not shown.

SMILES,method,value
CC(C)[C@H](NC(=O)c1ccccc1)C(=O)N/N=C/c1c(F)cccc1F,MTT,>348 µM
CCCCSc1nc(C2(c3c(F)cccc3F)CC2)c(C)c(=O)[nH]1,MTT,8 µM
CCc1nc(NCN2C(=O)C(=Nc3ccc(S(=O)(=O)Nc4ncnc(OC)c4OC)cc3)c3cc(C)ccc32)nc(N)c1-c1ccc(Cl)cc1,-,8.5 µg/mL
Cc1cc(-c2ccc(C#N)cc2)cc(C)c1Oc1ccnc(S(=O)(=O)C(C)C(=O)NCc2ccc(F)cc2)n1,MTT,20.19 µM
C[C@H]1CC[C@]2(CC(C#N)=NO2)[C@H]2CN1C(=O)c1c(O)c(=O)c(C(=O)NCc3ccc(F)cc3F)cn12,luminescence,50 µM
COc1ncnc(NS(=O)(=O)c2ccc(N=C3C(=O)N(CN4CCNCC4)c4ccccc43)cc2)c1OC,-,1.8 µg/mL
COc1cc2c(cc1Cc1cccc(Cl)c1F)c(=O)c(C(=O)O)cn2[C@H](CO)C(C)C,-,24 µM
C[C@H]1CC[C@]2(CC(=O)N(CCc3ccccc3)O2)[C@H]2CN1C(=O)c1c(O)c(=O)c(C(=O)NCc3c(F)cc(F)cc3F)cn12,luminescence,50 µM
CCOCCOCCOCCO[C@@H]1O[C@H](COS(=O)(=O)O)[C@@H](OS(=O)(=O)O)[C@H](O[C@@H]2O[C@H](COS(=O)(=O)O)[C@@H](OS(=O)(=O)O)[C@H](O[C@@H]3O[C@H](COS(=O)(=O)O)[C@@H](OS(=O)(=O)O)[C@H](O[C@@H]4O[C@H](COS(=O)(=O)O)[C@@H](OS(=O)(=O)O)[C@H](O[C@@H]5O[C@H](COS(=O)(=O)O)[C@@H](OS(=O)(=O)O)[C@H](OS(=O)(=O)O)[C@H]5OS(=O)(=O)O)[C@H]4OS(=O)(=O)O)[C@H]3OS(=O)(=O)O)[C@H]2OS(=O)(=O)O)[C@H]1OS(=O)(=O)O,-,>1000 µg/mL
C[C@H]1CC[C@@]2(CC(CF)=NO2)[C@H]2CN1C(=O)c1c(O)c(=O)c(C(=O)NCc3ccc(F)cc3F)cn12,luminescence,50 µM
CCN(CC)CN1C(=O)C(=Nc2ccc(S(=O)(=O)Nc3ncnc(OC)c3OC)cc2)c2ccccc21,-,118.9 µg/mL
CC1(C)OS(=O)(=O)C=C1NCc1ccccc1,-,>125 µg/mL
CCc1nc(NCN2C(=O)C(=Nc3ccc(S(=O)(=O)Nc4ncnc(OC)c4OC)cc3)c3ccccc32)nc(N)c1-c1ccc(Cl)cc1,-,2.1 µg/mL
CCN1C[C@H](C)n2c(c(O)c3c(=O)n(Cc4ccc(F)c(Cl)c4)nc(C(=O)NC)c32)C1=O,-,12 µM
CC1=C(N)C(C)(Cc2ccccc2)OS1(=O)=O,-,>125 µg/mL
COc1cccc2c1c(/C(O)=C\C(=O)C(=O)O)cn2Cc1ccc(F)cc1,MTT,47.5 µM
[2H]C([2H])([15NH]C(=O)c1cn2c(c(O)c1=O)C(=O)N1C[C@@H]2[C@]2(CC[C@@H]1C)CC(C)=NO2)c1ccc(F)cc1F,luminescence,13.8 µM
CC(C)[C@@H](NC(=O)c1ccccc1)C(=O)N/N=C/c1c(F)cccc1Cl,MTT,>332 µM
C[C@H]1CC[C@]2(CC(OC3COC3)=NO2)[C@H]2CN1C(=O)c1c(O)c(=O)c(C(=O)NCc3ccc(F)cc3F)cn12,luminescence,50 µM
Cc1cc(-c2ccc(C#N)cc2)cc(C)c1Oc1ccnc(S(=O)(=O)C(C)C(=O)NCc2ccc(Cl)cc2)n1,MTT,12.17 µM
CCCCCCCCO[C@@H]1O[C@H](COS(=O)(=O)O)[C@@H](OS(=O)(=O)O)[C@H](O[C@@H]2O[C@H](COS(=O)(=O)O)[C@@H](OS(=O)(=O)O)[C@H](O[C@@H]3O[C@H](COS(=O)(=O)O)[C@@H](OS(=O)(=O)O)[C@H](O[C@@H]4O[C@H](COS(=O)(=O)O)[C@@H](OS(=O)(=O)O)[C@H](O[C@@H]5O[C@H](COS(=O)(=O)O)[C@@H](OS(=O)(=O)O)[C@H](OS(=O)(=O)O)[C@H]5OS(=O)(=O)O)[C@H]4OS(=O)(=O)O)[C@H]3OS(=O)(=O)O)[C@H]2OS(=O)(=O)O)[C@H]1OS(=O)(=O)O,-,>1000 µg/mL
CC(C)[C@@H](NC(=O)c1ccccc1)C(=O)N/N=C/c1ccccc1F,MTT,>366 µM
Cc1cc(-c2ccc(C#N)cc2)cc(C)c1Oc1ccnc(S(=O)(=O)CC(=O)Nc2ccc(Br)cc2)n1,MTT,26.91 µM
C[C@H](CCCC(C)(C)O)[C@H]1CC[C@H]2[C@@H]3[C@@H](O)C=C4C[C@@H](O)CC[C@]4(C)[C@H]3CC[C@]12C,-,>25 µM
COc1ncnc(NS(=O)(=O)c2ccc(N=C3C(=O)N(CN4CCCC4)c4ccc(C)cc43)cc2)c1OC,-,22.6 µg/mL
COc1cccc2c1c(/C(O)=C\C(=O)C(=O)O)cn2Cc1cc(F)ccc1F,MTT,24 µM
CC1CCC(O[C@@H]2O[C@H](COS(=O)(=O)O)[C@@H](OS(=O)(=O)O)[C@H](O[C@@H]3O[C@H](COS(=O)(=O)O)[C@@H](OS(=O)(=O)O)[C@H](O[C@@H]4O[C@H](COS(=O)(=O)O)[C@@H](OS(=O)(=O)O)[C@H](O[C@@H]5O[C@H](COS(=O)(=O)O)[C@@H](OS(=O)(=O)O)[C@H](O[C@@H]6O[C@H](COS(=O)(=O)O)[C@@H](OS(=O)(=O)O)[C@H](OS(=O)(=O)O)[C@H]6OS(=O)(=O)O)[C@H]5OS(=O)(=O)O)[C@H]4OS(=O)(=O)O)[C@H]3OS(=O)(=O)O)[C@H]2OS(=O)(=O)O)CC1,-,>1000 µg/mL
CC(C)CCS(=O)(=O)c1c(C(=O)NCc2nccn2C)[nH]c2ccc(Cl)cc12,microscopy,>10 µM
COc1cccc2c1c(/C(O)=C/C(=O)C(=O)O)cn2Cc1ccc(F)cc1.COc1cccc2c1c(/C(O)=C/C(=O)C(=O)O)cn2Cc1ccc(F)cc1.[Mg+2].[Mg+2],MTT,24.5 µM
CCCCCCCCO[C@@H]1O[C@H](COS(=O)(=O)O)[C@@H](OS(=O)(=O)O)[C@H](O[C@@H]2O[C@H](COS(=O)(=O)O)[C@@H](OS(=O)(=O)O)[C@H](O[C@@H]3O[C@H](COS(=O)(=O)O)[C@@H](OS(=O)(=O)O)[C@H](O[C@@H]4O[C@H](COS(=O)(=O)O)[C@@H](OS(=O)(=O)O)[C@H](OS(=O)(=O)O)[C@H]4OS(=O)(=O)O)[C@H]3OS(=O)(=O)O)[C@H]2OS(=O)(=O)O)[C@H]1OS(=O)(=O)O,-,>1000 µg/mL
CC1=C(N)C(C)(C)N(Cc2ccccc2)S1(=O)=O,-,>125 µg/mL
Cc1c(C2(c3c(F)cccc3F)CC2)nc(SC(C)C)[nH]c1=O,MTT,>0.01 µM
CCOC(=O)c1[nH]c2ccc(Cl)cc2c1SCCCC(F)(F)F,microscopy,>10 µM
CC1(C)C(N)=CS(=O)(=O)N1Cc1ccc(Cl)cc1,-,75 µg/mL
C[C@H]1CC[C@]2(CC(=O)N(Cc3ccc4ncsc4c3)O2)[C@H]2CN1C(=O)c1c(O)c(=O)c(C(=O)NCc3c(F)cc(F)cc3F)cn12,luminescence,50 µM
O=C(COc1cccnc1-c1cccc2ccccc12)Nc1cccnc1Cl,MTT / absorbance,179 µM
CCCCO[C@@H]1O[C@H](COS(=O)(=O)O)[C@@H](OS(=O)(=O)O)[C@H](O[C@@H]2O[C@H](COS(=O)(=O)O)[C@@H](OS(=O)(=O)O)[C@H](O[C@@H]3O[C@H](COS(=O)(=O)O)[C@@H](OS(=O)(=O)O)[C@H](O[C@@H]4O[C@H](COS(=O)(=O)O)[C@@H](OS(=O)(=O)O)[C@H](OS(=O)(=O)O)[C@H]4OS(=O)(=O)O)[C@H]3OS(=O)(=O)O)[C@H]2OS(=O)(=O)O)[C@H]1OS(=O)(=O)O,-,>1000 µg/mL
C[C@H]1CC[C@]2(CCC(=O)N2)[C@H]2CN1C(=O)c1c(O)c(=O)c(C(=O)NCc3c(F)cc(F)cc3F)cn12,luminescence,50 µM
NC(=O)c1[nH]c2ccc(Cl)cc2c1S(=O)(=O)CC1CC1,microscopy,>10 µM
CC(C)(C)c1ccc(-c2ncccc2OCC(=O)Nc2ccc(C(N)=O)cc2)cc1,MTT / absorbance,197 µM
CCCCCCCCCCO[C@@H]1O[C@H](COS(=O)(=O)O)[C@@H](OS(=O)(=O)O)[C@H](O[C@@H]2O[C@H](COS(=O)(=O)O)[C@@H](OS(=O)(=O)O)[C@H](O[C@@H]3O[C@H](COS(=O)(=O)O)[C@@H](OS(=O)(=O)O)[C@H](O[C@@H]4O[C@H](COS(=O)(=O)O)[C@@H](OS(=O)(=O)O)[C@H](OS(=O)(=O)O)[C@H]4OS(=O)(=O)O)[C@H]3OS(=O)(=O)O)[C@H]2OS(=O)(=O)O)[C@H]1OS(=O)(=O)O,-,>1000 µg/mL
O=c1[nH]c(=O)n([C@H]2C=C(CO)CO2)cc1Cl,-,>100 µg/mL
Cc1cc(C#N)cc(C)c1Oc1nc(Nc2ccc(C#N)cc2)nc(N)c1Br,MTT / absorbance,>4.59 µM
COc1ccc(CNC2=CS(=O)(=O)OC2(C)C)c(OC)c1,-,>125 µg/mL
COCCCCCCCCCCCC(=O)O,-,140 µM
COc1ncnc(NS(=O)(=O)c2ccc(N=C3C(=O)N(CN(C)C)c4ccccc43)cc2)c1OC,-,2.4 µg/mL
C[C@H]1CC[C@]2(CC(=O)N(Cc3ccc4c(cnn4C)c3)O2)[C@H]2CN1C(=O)c1c(O)c(=O)c(C(=O)NCc3c(F)cc(F)cc3F)cn12,luminescence,50 µM

For reference, 5 entries again:

SMILES | method | value
C[C@H]1CC[C@]2(CC(=O)N(CCc3ccccc3)O2)[C@H]2CN1C(=O)c1c(O)c(=O)c(C(=O)NCc3c(F)cc(F)cc3F)cn12 | luminescence | 50 µM
Cc1cc(-c2ccc(C#N)cc2)cc(C)c1Oc1ccnc(S(=O)(=O)CC(=O)Nc2ccc(Br)cc2)n1 | MTT | 26.91 µM
CCCCCCCCO[C@@H]1O[C@H](COS(=O)(=O)O)[C@@H](OS(=O)(=O)O)[C@H](O[C@@H]2O[C@H](COS(=O)(=O)O)[C@@H](OS(=O)(=O)O)[C@H](O[C@@H]3O[C@H](COS(=O)(=O)O)[C@@H](OS(=O)(=O)O)[C@H](O[C@@H]4O[C@H](COS(=O)(=O)O)[C@@H](OS(=O)(=O)O)[C@H](O[C@@H]5O[C@H](COS(=O)(=O)O)[C@@H](OS(=O)(=O)O)[C@H](OS(=O)(=O)O)[C@H]5OS(=O)(=O)O)[C@H]4OS(=O)(=O)O)[C@H]3OS(=O)(=O)O)[C@H]2OS(=O)(=O)O)[C@H]1OS(=O)(=O)O | - | >1000 µg/mL
C[C@H](CCCC(C)(C)O)[C@H]1CC[C@H]2[C@@H]3[C@@H](O)C=C4C[C@@H](O)CC[C@]4(C)[C@H]3CC[C@]12C | - | >25 µM
C[C@H]1CC[C@]2(CC(=O)N(Cc3ccc4c(cnn4C)c3)O2)[C@H]2CN1C(=O)c1c(O)c(=O)c(C(=O)NCc3c(F)cc(F)cc3F)cn12 | luminescence | 50 µM

Rows are shuffled and stem from different studies. CCn: concentration that lowers growth or viability of the cells by n%.